Results reported in ChEMBL document CHEMBL1955781, “Structure-activity relationship study of selective benzimidazole-based inhibitors of Cryptosporidium parvum IMPDH” (Bioorg Med Chem Lett, 2012).

Tested on: Toxoplasma gondii
Assay: Selectivity ratio of EC50 for wild type Toxoplasma gondii expressing endogenous IMPDH to EC50 for hypoxanthine-guanine-xanthine phosphoribosyltransferase gene knock out Toxoplasma gondii expressing Cryptosporidium parvum IMPDH
Type: functional

O=C(Cn1c(-c2ccccn2)nc2ccccc21)Nc1ccc2ccccc2c1
Ratio EC50: 9
